Anti-infective test results gathered from many reports (values: NIAID ChemDB through PubChem).

All rows: target-level tests; organism: HIV-1; protein: Reverse transcriptase; read by: nucleotide incorporation / radiometric; endpoint: IC50

Neighbouring rows are from separate reports. ICn: concentration for n% inhibition.

{"SMILES": "COc1ccc(CSc2nc(Cc3c(Cl)cccc3Cl)c(C)c(=O)[nH]2)c(OC)c1", "mutations": "RT-181I", "value": ">400 µM"}
{"SMILES": "CN(C)c1ccc(-n2nnnc2SCC(=O)Nc2ccccc2Cl)c2ccccc12", "value": "<2 µM"}
{"SMILES": "CCN1c2ncc(COc3cccc(N)c3)cc2C(=O)N(C)c2ccc(Cl)nc21", "mutations": "RT-Y181C", "value": "<1 µM"}
{"SMILES": "Cc1cn([C@H]2CC[C@@H](COP(=O)(O)OP(=O)(O)OP(=O)(O)O)O2)c(=O)[nH]c1=O", "value": "0.1 µM"}
{"SMILES": "CCC1(c2ccc(CNc3cccc(F)c3)cc2)Oc2ccccc2-n2cccc2C1=O", "mutations": "RT-L100I", "value": "2.5 µM"}
{"SMILES": "CCN1c2ncc(CCOc3cc[n+]([O-])cc3)cc2C(=O)N(C)c2ccc(Cl)nc21", "strain": "WT", "value": "<1 µM"}
{"SMILES": "COc1cc([N+](=O)[O-])ccc1NC(=O)CSc1nnnn1-c1c(C)cc(C)cc1C", "value": "<2 µM"}
{"SMILES": "CCOc1cccc(C2(CC)Oc3ccccc3-n3cccc3C2=O)c1", "mutations": "RT-L100I", "value": "0.2 µM"}
{"SMILES": "CCN1c2ncc(CO)cc2C(=O)N(C)c2ccc(Cl)nc21", "strain": "WT", "value": "<1 µM"}
{"SMILES": "Cc1c(Cc2c(Cl)cccc2Cl)nc(SCc2ccc(C#N)cc2)[nH]c1=O", "mutations": "RT-181I", "value": ">400 µM"}
{"SMILES": "CCN1c2ncc(COc3ccnc(C(F)(F)F)c3)cc2C(=O)N(C)c2ccc(Cl)nc21", "mutations": "RT-Y181C", "value": "<1 µM"}
{"SMILES": "C=C(C)CCOCc1ccc(C2(CC)Oc3ccccc3-n3cccc3C2=O)cc1", "mutations": "RT-K103N", "value": ">10 µM"}
{"SMILES": "CCN1c2ncc(COc3ccnc(C)c3)cc2C(=O)N(C)c2ccc(Cl)nc21", "mutations": "RT-Y181C", "value": "<1 µM"}
{"SMILES": "COc1ncccc1NC(=O)CSc1nnnn1-c1c(C)cc(C)cc1C", "value": "<2 µM"}
{"SMILES": "CCC1(c2ccc(COc3cccc(Cl)c3)cc2)Oc2ccccc2-n2cccc2C1=O", "mutations": "RT-Y181I", "value": ">10 µM"}
{"SMILES": "COc1cc(CSc2nc(Cc3c(F)cccc3F)c(C)c(=O)[nH]2)cc(OC)c1", "mutations": "RT-K103N", "value": ">400 µM"}
{"SMILES": "CCC1(c2ccc(CNc3ccccc3)cc2)Oc2ccccc2-n2cccc2C1=O", "mutations": "RT-V106A", "value": "1.2 µM"}
{"SMILES": "CCN1c2ncc(COc3cccc(C(=O)OC)c3)cc2C(=O)N(C)c2ccc(Cl)nc21", "mutations": "RT-Y181C", "value": ">1 µM"}
{"SMILES": "CCC1(c2ccc(COc3ccccc3)cc2)Oc2ccccc2-n2cccc2C1=O", "strain": "WT", "value": "0.15 µM"}
{"SMILES": "CCN1c2ncc(CO)cc2C(=O)N(C)c2ccc(F)nc21", "strain": "WT", "value": "<1 µM"}
{"SMILES": "Cc1c(Cc2c(Cl)cccc2Cl)nc(S(=O)(=O)Cc2ccc([N+](=O)[O-])cc2)[nH]c1=O", "strain": "WT", "value": ">400 µM"}
{"SMILES": "Cc1cc(C)c(-n2nnnc2SCC(=O)Nc2cc(F)ccc2F)c(C)c1", "value": "<2 µM"}
{"SMILES": "Cc1c(Cc2c(Cl)cccc2Cl)nc(SCc2ccc(Cl)cc2)[nH]c1=O", "mutations": "RT-K103N", "value": ">400 µM"}
{"SMILES": "COc1ccccc1NC(=O)CSc1nnnn1-c1cccc2ccccc12", "value": "<2 µM"}